By UniProt entry, the sequences of proteins in these tests, tags left out.
UniProt P18177, whole entry: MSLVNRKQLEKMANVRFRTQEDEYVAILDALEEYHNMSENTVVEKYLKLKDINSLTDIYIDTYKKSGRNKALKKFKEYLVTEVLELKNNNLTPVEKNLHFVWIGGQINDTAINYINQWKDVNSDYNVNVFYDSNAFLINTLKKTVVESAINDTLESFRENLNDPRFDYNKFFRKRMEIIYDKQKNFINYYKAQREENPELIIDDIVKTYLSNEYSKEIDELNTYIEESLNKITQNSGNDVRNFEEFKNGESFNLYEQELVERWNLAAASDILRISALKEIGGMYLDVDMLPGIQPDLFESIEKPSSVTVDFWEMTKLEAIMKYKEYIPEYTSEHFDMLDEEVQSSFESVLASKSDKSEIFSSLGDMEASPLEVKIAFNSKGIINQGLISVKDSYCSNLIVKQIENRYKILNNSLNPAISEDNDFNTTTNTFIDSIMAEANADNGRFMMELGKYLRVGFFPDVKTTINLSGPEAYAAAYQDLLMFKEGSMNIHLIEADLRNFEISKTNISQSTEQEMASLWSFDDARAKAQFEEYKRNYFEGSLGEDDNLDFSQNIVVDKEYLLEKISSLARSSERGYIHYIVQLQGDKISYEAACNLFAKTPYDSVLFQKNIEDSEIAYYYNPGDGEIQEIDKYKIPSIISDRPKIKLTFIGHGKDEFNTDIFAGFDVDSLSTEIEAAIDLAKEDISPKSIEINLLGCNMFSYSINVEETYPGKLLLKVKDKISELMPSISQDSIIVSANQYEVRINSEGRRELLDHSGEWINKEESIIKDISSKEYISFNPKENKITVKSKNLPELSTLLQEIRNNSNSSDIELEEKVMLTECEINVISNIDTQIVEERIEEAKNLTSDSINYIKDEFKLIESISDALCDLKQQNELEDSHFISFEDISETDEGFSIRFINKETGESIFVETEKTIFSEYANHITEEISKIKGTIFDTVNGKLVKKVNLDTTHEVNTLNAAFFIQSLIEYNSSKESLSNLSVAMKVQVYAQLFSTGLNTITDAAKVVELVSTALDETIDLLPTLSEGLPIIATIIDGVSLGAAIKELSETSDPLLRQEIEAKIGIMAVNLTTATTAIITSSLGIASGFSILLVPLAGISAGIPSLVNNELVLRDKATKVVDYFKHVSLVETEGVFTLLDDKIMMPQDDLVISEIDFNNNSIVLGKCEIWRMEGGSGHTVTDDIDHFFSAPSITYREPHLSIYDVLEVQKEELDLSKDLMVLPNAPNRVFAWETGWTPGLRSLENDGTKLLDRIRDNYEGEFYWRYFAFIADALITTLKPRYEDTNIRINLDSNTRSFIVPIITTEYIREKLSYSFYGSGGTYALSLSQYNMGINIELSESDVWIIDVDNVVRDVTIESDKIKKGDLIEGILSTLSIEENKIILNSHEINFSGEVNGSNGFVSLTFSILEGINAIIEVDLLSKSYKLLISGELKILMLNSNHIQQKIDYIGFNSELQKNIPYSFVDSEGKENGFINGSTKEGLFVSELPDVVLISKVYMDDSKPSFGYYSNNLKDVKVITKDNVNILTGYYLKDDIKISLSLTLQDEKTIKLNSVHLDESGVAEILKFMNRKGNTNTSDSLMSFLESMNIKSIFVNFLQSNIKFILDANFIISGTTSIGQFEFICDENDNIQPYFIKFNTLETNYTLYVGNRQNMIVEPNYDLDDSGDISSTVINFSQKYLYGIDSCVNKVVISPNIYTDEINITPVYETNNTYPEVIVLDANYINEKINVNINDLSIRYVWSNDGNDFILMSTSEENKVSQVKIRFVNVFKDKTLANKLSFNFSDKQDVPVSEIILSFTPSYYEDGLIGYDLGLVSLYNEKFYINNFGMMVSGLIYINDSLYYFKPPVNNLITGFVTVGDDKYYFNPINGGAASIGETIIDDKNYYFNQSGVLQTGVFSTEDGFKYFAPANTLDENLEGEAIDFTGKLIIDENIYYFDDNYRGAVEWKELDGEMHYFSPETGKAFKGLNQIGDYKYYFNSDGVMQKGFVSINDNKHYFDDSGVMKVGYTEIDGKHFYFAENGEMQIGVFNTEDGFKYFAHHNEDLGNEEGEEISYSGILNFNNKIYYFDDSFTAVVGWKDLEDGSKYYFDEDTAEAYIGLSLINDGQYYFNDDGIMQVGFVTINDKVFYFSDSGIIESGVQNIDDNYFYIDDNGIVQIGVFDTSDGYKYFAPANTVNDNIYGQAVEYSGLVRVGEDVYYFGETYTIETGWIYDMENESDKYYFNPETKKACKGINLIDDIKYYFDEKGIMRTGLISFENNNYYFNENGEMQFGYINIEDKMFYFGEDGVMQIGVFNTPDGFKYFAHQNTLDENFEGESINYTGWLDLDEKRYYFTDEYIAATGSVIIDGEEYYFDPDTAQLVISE

According to US10172829B2 (priority 2014, dated 2019):

Biological target: full length TcdB (Clostridioides difficile, UniProt P18177)
Details: at low nanomolar concentrations

## O=c1c2ccccc2[se]n1-c1ccccc1 [Ebselen, 2-phenyl-1,2-benzoselenazol-3-one]
  IP6 induced release of the GTD domain: completely inhibited
